Experiments:
[1] = Pip/NHP levels in Arabidopsis leaves after Psm inoculation (GC-MS); assay type: in vivo, Arabidopsis thaliana; details: for endogenous level in Psm-inoculated (1°) leaves: Col-0; for endogenous level in distant (2°) leaves: Col-0, 1° leaves Psm-inoculated
[2] = assay type: in vivo, Solanum lycopersicum; details: tomato cultivar M82; Phytophthora infestans strain D12.2; 48 h
[3] = Pip/NHP accumulation in tobacco after Pseudomonas syringae pv. tabaci inoculation; details: tobacco cv Xanthi, 72 h

SMILES	endogenous level in Psm-inoculated (1°) leaves ([1]; 48 hpi)	pathogen-induced accumulation in inoculated plants [2] [μg/g FW]	endogenous level in distant (2°) leaves ([1]; 24 hpi) [μg g^−1 FW]	endogenous level in distant (2°) leaves ([1]; 72 hpi) [μg g^−1 FW]	endogenous level in Psm-inoculated (1°) leaves ([1]; 24 hpi (maximum))	endogenous level in Psm-inoculated leaves ([1]; both eds1 and pad4 mutants, 48 hpi)	endogenous level as share of the wild-type level ([1]; eds1 mutant, 24 hpi) [%]	endogenous level in Psm-inoculated leaves ([1]; eds1 mutant, 24 hpi) [μg g^−1 FW]	endogenous level in Psm-inoculated leaves ([1]; npr1 mutant, 24 hpi) [μg g^−1 FW]	endogenous level as share of the wild-type level ([1]; pad4 mutant, 24 hpi) [%]	endogenous level in Psm-inoculated leaves ([1]; pad4 mutant, 24 hpi) [μg g^−1 FW]	endogenous level in Psm-inoculated leaves ([1]; sard4-5 mutant, 24 hpi) [μg g^−1 FW]	endogenous level in Psm-inoculated leaves ([1]; sard4-5 mutant, 48 hpi) [μg g^−1 FW]	endogenous level in Psm-inoculated leaves ([1]; sid2 mutant, 24 hpi) [μg g^−1 FW]	endogenous level in Psm-inoculated leaves ([1]; sid2 mutant, 48 hpi) [μg g^−1 FW]	peak value of accumulation in inoculated plants [3]
O=C(O)[C@@H]1CCCCN1 [Pip, (S)-piperidine-2-carboxylic acid, reference compound]	more than 100 μg g^−1 FW	> 20	–	–	–	–	–	–	–	–	–	–	–	–	–	–
O=C(O)C1CCCCN1O (stereo not drawn) [NHP, 1-hydroxypiperidine-2-carboxylic acid]	16 μg g^−1 FW	> 4	~0.15	0.5	about 30 μg g^−1 FW	about 0.15 μg g^−1 FW	1.3	0.4	56	2.4	0.7	0.3	1.9	119	260	approximately 10 μg/g FW

Source: patent US12137687B2, “Method for inducing acquired resistance in a plant” (HEINRICH HEINE UNIVERSITAET DUESSELDORF, priority 2017, dated 2024)
